Measured data: PubChem BioAssay AID504761 (Drosophila RNAi Screening Center, 2011)
The deposit covers about 22,000 reagents; shown is an unselected part of those that have a named target and a result. In the full data, 116 (0.52%) got an active call. 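Calls depend on retest data that are not deposited; infection was ranked per plate without normalising between plates; the unit of the infection score is not given.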 Raw values vary from plate to plate and are shown uncorrected. Entries without a mark were called inactive. A plus sign joins genes that one reagent is predicted to hit. Not all columns of the deposit are shown. Not given: the amount of reagent, the time to read-out.

- Test: 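Genome-wide fly cell screen for genes dengue virus requires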 (primary screen)
- System: D.Mel-2 cells from Drosophila
- Reagent: long dsRNA against Drosophila genes
- Treatment: infection with dengue virus type 2; dose and infection time not stated
- Read-out: 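Cells stained for dengue envelope protein and imaged; percent of infected cells per well on duplicate plates, ranked by infection, with stained nuclei counted for cell number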
- Direction: infection score: higher = more virus-infected cells; cell count: higher = more cells in the well
- Rule for the call: 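Low infection ranks in the two replicates (chance level up to 0.065) followed by a retest with a 1.5-fold or larger significant decrease, p below 0.05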
- Calls: active = confirmed: knock-down lowers infection; inactive = not picked or not confirmed

Target gene | DRSC id | infection score, replicate 1 | infection score, replicate 2 | cell count, replicate 1
Polr1C (RNA polymerase I and III subunit C) | DRSC02719 | 4.21 | 12.8 | 4966
pdm3 (pou domain motif 3) | DRSC06076 | 6.17 | 13.2 | 6304
pdm3 (pou domain motif 3) | DRSC23181 | 1.43 | 4.46 | 5870
pdm3 (pou domain motif 3) | DRSC27184 | 27.2 | 16.1 | 6193
pdm3 (pou domain motif 3) | DRSC29989 | 23 | 7.56 | 5893
CG14840 | DRSC14964 | 4.64 | 3.89 | 6276
CG14840 | DRSC27978 | 11.3 | 8.95 | 6353
CG11125 | DRSC06042 | 9.76 | 6.57 | 5668
CG43672 | DRSC19452 | 6.1 | 3.7 | 5479
CG43672 | DRSC20108 | 4.44 | 7.16 | 5925
Orp8 (Oxysterol-binding protein-related protein 8) | DRSC15110 | 18.3 | 18.4 | 6787
Orp8 (Oxysterol-binding protein-related protein 8) | DRSC15712 | 4.52 | 1.81 | 6996
Orp8 (Oxysterol-binding protein-related protein 8) | DRSC28849 | 2.37 | – | 1474
bbx + waw | DRSC20575 | 2.08 | 1.48 | 6601
bbx + waw | DRSC20589 | – | 4.96 | 1266
CG14537 | DRSC02395 | 3.27 | 4.01 | 5837
Hsp60D (Heat shock protein 60D) | DRSC02543 | 2.99 | 2.85 | 6857
Hsp60D (Heat shock protein 60D) | DRSC29118 | 18.4 | 21.1 | 1464
Pp1-13C (Protein phosphatase 1 at 13C) | DRSC20269 | 3.05 | 2.45 | 5740
Pp1-13C (Protein phosphatase 1 at 13C) | DRSC23305 | 2.13 | 7.5 | 6068
Pp1-13C (Protein phosphatase 1 at 13C) | DRSC27492 | 8.39 | 5.82 | 6433
grk (gurken) | DRSC03540 | 5.95 | 3.44 | 6351
PGRP-SC1a (Peptidoglycan recognition protein SC1a) | DRSC06482 | 2.92 | 11.1 | 6709

3 entries from above in another layout.
{"Target gene":"Polr1C (RNA polymerase I and III subunit C)","DRSC id":"DRSC02719","infection score, replicate 1":4.21,"infection score, replicate 2":12.8,"cell count, replicate 1":4966}
{"Target gene":"pdm3 (pou domain motif 3)","DRSC id":"DRSC06076","infection score, replicate 1":6.17,"infection score, replicate 2":13.2,"cell count, replicate 1":6304}
{"Target gene":"pdm3 (pou domain motif 3)","DRSC id":"DRSC23181","infection score, replicate 1":1.43,"infection score, replicate 2":4.46,"cell count, replicate 1":5870}
